Test results reported in patent publication US20240059757A1 (VIR BIOTECHNOLOGY, published 2024).

B1: S2X259 variant antibody, VH SEQ ID NO 408 / VL SEQ ID NO 442 (antibody, V domains shown)
VH: QVQLVQSGAEVKKPGSSVKVSCKASGGIFNTYTISWVRQAPGQGLEWMGRIILMSGMANYAQKIQGRVTITADKSTSTAYMELTSLRSDDTAVYYCARGFNGNYYGWGDDDAFDISGQGTLVTVYS
VL: QTVLTQPPSVSGAPGQRVTISCTGSNSNIGAGYDVHWYQQLPGTAPKLLISGNSNRPSGVPDRFSGSKSGTSASLAITGLQAEDEADYYCQSYDSSLSGPNWVFGGGTKLTVL
B2: S2X259 variant antibody, VH SEQ ID NO 408 / VL SEQ ID NO 444 (antibody, V domains shown)
VH: B1 VH
VL: B1 VL with S51Y
B3: S2X259 variant antibody, VH SEQ ID NO 408 / VL SEQ ID NO 443 (antibody, V domains shown)
VH: B1 VH
VL: B1 VL with S51A
B4: S2X259 variant antibody, VH SEQ ID NO 408 / VL SEQ ID NO 445 (antibody, V domains shown)
VH: B1 VH
VL: B1 VL with S51V
B5: S2X259 variant antibody, VH SEQ ID NO 458 / VL SEQ ID NO 445 (antibody, V domains shown)
VH: B1 VH with S116W, Y125S
VL: B1 VL with S51V
B6: S2X259 variant antibody, VH SEQ ID NO 459 / VL SEQ ID NO 445 (antibody, V domains shown)
VH: B1 VH with M57K, S116W, Y125S
VL: B1 VL with S51V
B7: S2X259 variant antibody, VH SEQ ID NO 446 / VL SEQ ID NO 412 (antibody, V domains shown)
VH: B1 VH with M54I, M57I
VL: B1 VL with S51C

How the values were obtained:
WIV1 spike protein RBD = WIV1 spike protein RBD (WIV1); assay: BLI
[1] = target: PANG/GD spike protein RBD (PANG/GD); assay: ELISA
BtKY72 spike protein RBD = BtKY72 spike protein RBD (BtKY72); assay: ELISA

| Binder | Kd (WIV1 spike protein RBD) | IC50 [1] | IC50 (BtKY72 spike protein RBD) |
| --- | --- | --- | --- |
| B1 | 0.345 nM | – | – |
| B2 | 0.986 nM | – | – |
| B3 | 0.422 nM | – | – |
| B4 | 0.446 nM | – | – |
| B5 | – | ≥ 0.05 µg/mL and ≤ 0.1 µg/mL | – |
| B6 | – | ≥ 0.05 µg/mL and ≤ 0.1 µg/mL | ≥ 0.05 µg/mL and ≤ 0.1 µg/mL |
| B7 | 3.06 nM | – | – |

Where a chain is given by its changes, count along the chain named. Where “and” joins values, the source holds several entries; their conditions need not be identical. Equal entries are not always repeated.
